{"source": "patent EP2632470B1", "about": "(priority 2010, dated 2012)", "key": {"[1]": {"assay": "Iron affinity, stepwise association constant log K1", "type": "physicochemical"}, "[2]": {"details": "cited from earlier work"}, "[3]": {"details": "(c) interpolated from correlation between Zn^2+ and Fe^2+ data"}, "[4]": {"details": "source (b) IUPAC Stability Constant Database"}, "[5]": {"details": "source (a) NIST Standard Reference Database 46"}}, "note": "Where a name gives a salt, the structure may show the parent alone. Read-outs that look alike come from different tables or passages of the source.", "data": [{"smiles": "CCCCCCCCOc1cccc(=O)n1O", "note": "[HP-101, N-Hydroxy-6-octyloxypyridine-2(1H)one, ethanolamine salt]", "values": [{"measurement": "Iron Affinity, log K1 Fe^2+, pH = 7.4", "setting": "[1]; (d) interpolated from correlation between Fe^3+ and Fe^2+ data", "result": "5.4 (d)"}]}, {"smiles": "c1ccc(-c2cccc(-c3ccccn3)n2)nc1", "note": "[2,2':6',2\"-terpyridine]", "values": [{"measurement": "Iron Affinity, log K1 Fe^2+, pH = 7.4", "setting": "[1]; [3]", "result": "5.0 (c)"}]}, {"smiles": "Cc1c(O)c(=O)ccn1C", "note": "[3-Hydroxy-1,2-dimethyl-4(1H)-pyridone]", "values": [{"measurement": "Iron Affinity, log K1 Fe^2+, pH = 7.4", "setting": "[1]; [3]", "result": "3.9 (c)"}]}, {"smiles": "Oc1c(I)cc(Cl)c2cccnc12", "note": "[5-Chloro-8-hydroxy-7-iodoquinoline]", "values": [{"measurement": "Iron Affinity, log K1 Fe^2+, pH = 7.4", "setting": "[2]; [4]", "result": "7.0 (b)"}]}, {"smiles": "O=C(O)CN(CCO)CCO", "note": "[N,N-Bis(2-hydroxyethyl)glycine (Bicine), N,N-Bis(2-hydroxyethyl)glycine]", "values": [{"measurement": "Iron Affinity, log K1 Fe^2+, pH = 7.4", "setting": "[1]; [3]", "result": "3.6 (c)"}]}, {"smiles": "Cc1ccc2ccc3ccc(C)nc3c2n1", "note": "[2,9-dimethyl-1,10-phenanthroline]", "values": [{"measurement": "Iron Affinity, log K1 Fe^2+, pH = 7.4", "setting": "[1]; [3]", "result": "3.3 (c)"}]}, {"smiles": "C1CNCCNCCNCCNCCNCCN1", "note": "[1,4,7,10,13,16-Hexaazacyclooctadecane]", "values": [{"measurement": "Iron Affinity, log K1 Fe^2+, pH = 7.4", "setting": "[1]; (e) interpolated from correlation between Cu^2+ and Fe^2+ data", "result": "13.3 (e)"}]}, {"smiles": "O=c1cc(CO)occ1O", "note": "[kojic acid]", "values": [{"measurement": "Iron Affinity, log K1 Fe^2+, pH = 7.4", "setting": "[1]; [3]", "result": "3.7 (c)"}]}, {"smiles": "Oc1ccc(N=Nc2nccs2)c(O)c1", "note": "[4-(2-thiazolylazo)-resorcinol]", "values": [{"measurement": "Iron Affinity, log K1 Fe^2+, pH = 7.4", "setting": "[2]; [5]", "result": "3.2 (a)"}]}, {"smiles": "O=C(O)CN1CCCN(CC(=O)O)CCN(CC(=O)O)CCCN(CC(=O)O)CC1", "note": "[1,4,8,11-Tetraazacyclotetradecane-N,N',N\",N'''-tetraacetic acid]", "values": [{"measurement": "Iron Affinity, log K1 Fe^2+, pH = 7.4", "setting": "[2]; [5]", "result": "9.9 (a)"}]}, {"smiles": "Oc1ccc2ccccc2c1N=Nc1nccs1", "note": "[1-(2-Thiazoylazo)-2-naphthol]", "values": [{"measurement": "Iron Affinity, log K1 Fe^2+, pH = 7.4", "setting": "[1]; [3]", "result": "6.6 (c)"}]}, {"smiles": "S=C(N=Nc1ccccc1)NNc1ccccc1", "note": "[1,5-Diphenyl-1,2,4,5-tetraazapent-1-en-3-thione]", "values": [{"measurement": "Iron Affinity, log K1 Fe^2+, pH = 7.4", "setting": "[2]; [5]", "result": "6.5 (a)"}]}, {"smiles": "Oc1c(Cl)cc(Cl)c2cccnc12", "note": "[5,7-dichloro-8-hydroxyquinoline]", "values": [{"measurement": "Iron Affinity, log K1 Fe^2+, pH = 7.4", "setting": "[2]; [4]", "result": "7.2 (b)"}]}, {"smiles": "N[C@@H](COP(=O)(O)O)C(=O)O", "note": "[L-2-Amino-3-phosphopropanoic acid]", "values": [{"measurement": "Iron Affinity, log K1 Fe^2+, pH = 7.4", "setting": "[1]; [3]", "result": "2.3 (c)"}]}, {"smiles": "NCCC(=O)N[C@@H](Cc1c[nH]cn1)C(=O)O", "note": "[beta-Alanyl-L-histidine (L-Carnosine), beta-Alanyl-L-histidine]", "values": [{"measurement": "Iron Affinity, log K1 Fe^2+, pH = 7.4", "setting": "[1]; [3]", "result": "1.3 (c)"}]}]}
